Test results published in publication PMC9724662, “Cryo‐EM structure of the octameric pore of Clostridium perfringens β‐toxin” (2022).

Biological target: Clostridium perfringens β-toxin (CPB), N-terminally His6-tagged wild type (Clostridium perfringens)

“Clostridium perfringens β-toxin (CPB), N-terminally His6-tagged wild type (natural protein)” showed a stoichiometry N of 8.
